The experiment concerns the target Recombinant SARS-CoV-2 S1-614G with polyhistidine-tag (SARS-CoV-2). Description: BLI. For orientation: In BLI a coated tip is dipped into the sample, and binding shifts an interference pattern.

The values below come from PMC7605563.

For “Recombinant hACE2 protein (from UniProt Q9BYF1) (receptor)”, the Kd turned out to be 1.65 nM.

What is called Kd is a measure of binding affinity in units of concentration.
